From US8846684B2 (priority 2011, dated 2014)

System: neuroadapted Sindbis virus (NSV)
Test: Acute NSV encephalomyelitis in mice

C[C@@H](NC(=O)C1CCN(C(=O)c2cc3ccccc3n2Cc2ccc(Cl)cc2)CC1)c1ccccc1 [CCG 203926, (R)-1-(1-(4-chlorobenzyl)-1H-indole-2-carbonyl)-N-(1-phenylethyl)piperidine-4-carboxamide]
protection from lethal NSV infection (survival) (30 mg/kg twice daily intraperitoneal, beginning 12 hours after viral challenge, 7-day period, vs untreated, vehicle or 9g, FIG. 2A): significantly protected
development of severe hind limb paralysis (30 mg/kg twice daily, FIG. 2B): conferred benefit
viral titers in the brains (plaque titration) (1-4 days after infection, compared to 9g or vehicle, FIG. 3A): lower
density of preserved motor neuron axons in lumbar ventral nerve roots (14 days post-infection, compared to 9g or vehicle, FIG. 5B): enhanced cell survival
hippocampal neuronal injury (fluorojade-positive neurons) (compared to 9g or vehicle, FIG. 4B): reduced neuronal injury
pilot survival assays, dose comparison (doses of 10 mg/kg and 30 mg/kg): the higher concentration was more effective
